Test results taken from PMC8725163 (Acta Crystallographica. Section D, Structural Biology, 2022).

Target: T1, BpsDsbA (oxidized) (Burkholderia pseudomallei, UniProt Q63Y08)
T1 construct: gene dsbA
Conditions: oxidized form; 100 uM protein, 50 mM HEPES, 25 mM NaCl, 2 mM EDTA, 2% d6-DMSO, pH 6.8; cryptic pocket at Tyr110 near active site

With bromophenoxy propanamide [compound 1] as the substance, how does the Kd read?
The Kd was > 2 mM.
